Results: ChEMBL document CHEMBL5034007, “Discovery of Methylene Thioacetal-Incorporated α-RgIA Analogues as Potent and Stable Antagonists of the Human α9α10 Nicotinic Acetylcholine Receptor for the Treatment of Neuropathic Pain” (2021)

By UniProt entry, the sequences of proteins in these tests, tags left out. Where a name states a change or a piece, a line headed by the entry shows the natural chain unless it says otherwise.
UniProt P29475, whole entry, looked up: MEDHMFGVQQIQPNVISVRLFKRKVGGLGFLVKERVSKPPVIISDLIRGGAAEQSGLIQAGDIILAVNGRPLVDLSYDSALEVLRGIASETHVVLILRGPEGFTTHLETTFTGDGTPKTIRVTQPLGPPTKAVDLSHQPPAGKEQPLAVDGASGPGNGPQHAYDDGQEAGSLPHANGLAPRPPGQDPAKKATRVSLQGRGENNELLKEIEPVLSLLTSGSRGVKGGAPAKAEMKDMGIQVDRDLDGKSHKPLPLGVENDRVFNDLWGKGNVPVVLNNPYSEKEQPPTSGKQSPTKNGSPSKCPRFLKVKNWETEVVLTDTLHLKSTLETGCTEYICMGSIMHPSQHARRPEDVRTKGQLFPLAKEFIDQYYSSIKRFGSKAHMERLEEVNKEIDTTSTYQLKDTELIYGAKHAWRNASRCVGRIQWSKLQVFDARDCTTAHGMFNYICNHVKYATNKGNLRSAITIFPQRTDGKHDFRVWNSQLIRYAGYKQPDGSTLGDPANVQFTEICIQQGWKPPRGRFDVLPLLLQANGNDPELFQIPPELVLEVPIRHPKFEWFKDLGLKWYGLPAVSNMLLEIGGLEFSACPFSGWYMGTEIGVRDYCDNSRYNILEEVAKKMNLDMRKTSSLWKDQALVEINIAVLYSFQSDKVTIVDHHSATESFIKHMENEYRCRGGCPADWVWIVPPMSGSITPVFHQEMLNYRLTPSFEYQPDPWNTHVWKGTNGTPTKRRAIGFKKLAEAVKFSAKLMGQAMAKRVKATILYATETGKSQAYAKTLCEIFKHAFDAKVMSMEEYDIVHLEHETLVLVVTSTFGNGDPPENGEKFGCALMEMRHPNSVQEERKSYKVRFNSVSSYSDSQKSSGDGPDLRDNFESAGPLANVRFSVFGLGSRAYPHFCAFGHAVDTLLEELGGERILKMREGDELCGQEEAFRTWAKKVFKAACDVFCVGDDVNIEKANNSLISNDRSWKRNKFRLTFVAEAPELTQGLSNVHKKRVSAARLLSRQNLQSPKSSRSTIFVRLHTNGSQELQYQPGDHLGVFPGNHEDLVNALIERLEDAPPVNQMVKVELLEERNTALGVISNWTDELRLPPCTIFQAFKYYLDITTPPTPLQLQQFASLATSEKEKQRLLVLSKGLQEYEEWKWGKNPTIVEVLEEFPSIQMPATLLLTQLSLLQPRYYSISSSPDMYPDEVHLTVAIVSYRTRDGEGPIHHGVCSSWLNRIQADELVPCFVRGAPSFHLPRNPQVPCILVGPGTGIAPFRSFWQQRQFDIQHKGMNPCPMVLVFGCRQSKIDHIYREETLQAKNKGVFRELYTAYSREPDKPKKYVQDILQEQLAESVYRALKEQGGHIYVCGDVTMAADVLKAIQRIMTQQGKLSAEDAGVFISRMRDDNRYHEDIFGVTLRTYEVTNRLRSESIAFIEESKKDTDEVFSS
UniProt P10275: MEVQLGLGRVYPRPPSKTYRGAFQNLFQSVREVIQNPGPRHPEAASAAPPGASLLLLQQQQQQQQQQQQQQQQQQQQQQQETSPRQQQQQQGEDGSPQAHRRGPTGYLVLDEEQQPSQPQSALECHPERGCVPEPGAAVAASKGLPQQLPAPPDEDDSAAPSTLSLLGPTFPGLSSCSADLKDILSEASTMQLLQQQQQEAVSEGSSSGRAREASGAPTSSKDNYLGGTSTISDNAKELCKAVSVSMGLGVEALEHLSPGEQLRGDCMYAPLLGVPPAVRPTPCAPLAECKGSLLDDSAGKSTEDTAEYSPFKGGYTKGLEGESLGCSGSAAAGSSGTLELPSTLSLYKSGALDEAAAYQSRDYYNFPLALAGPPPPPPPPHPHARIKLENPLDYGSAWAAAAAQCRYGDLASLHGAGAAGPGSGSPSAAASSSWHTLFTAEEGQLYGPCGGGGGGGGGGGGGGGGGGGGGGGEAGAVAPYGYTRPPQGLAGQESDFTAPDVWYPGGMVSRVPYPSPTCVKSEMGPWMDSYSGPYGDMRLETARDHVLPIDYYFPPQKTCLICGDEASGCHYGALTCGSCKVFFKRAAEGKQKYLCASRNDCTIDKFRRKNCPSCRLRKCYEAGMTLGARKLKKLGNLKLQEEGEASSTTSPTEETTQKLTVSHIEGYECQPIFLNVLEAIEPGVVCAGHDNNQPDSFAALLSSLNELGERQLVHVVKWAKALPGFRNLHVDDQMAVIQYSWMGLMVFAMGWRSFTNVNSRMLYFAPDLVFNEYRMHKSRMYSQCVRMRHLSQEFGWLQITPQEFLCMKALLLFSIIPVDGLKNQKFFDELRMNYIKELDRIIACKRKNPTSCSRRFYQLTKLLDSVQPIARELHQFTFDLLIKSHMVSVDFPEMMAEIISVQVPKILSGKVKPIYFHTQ

Experiments:
[1] = biological target: Nitric oxide synthase 1 (Homo sapiens) (UniProt P29475); assay: Inhibition of NOS (unknown origin); settings: concentration not given here
[2] = organism: Rattus norvegicus; assay: Displacement of [3H]flunitrazepam from rat brain central BZD at 10 uM after 60 mins by radioligand binding assay relative to control
[3] = organism: Rattus norvegicus; assay: Displacement of [3H]-QNB from rat brain muscarinic receptor at 10 uM after 120 mins by scintillation counting method relative to control
[4] = biological target: Androgen receptor (Homo sapiens) (UniProt P10275); assay: Displacement of [3H]methyltrienolone from human androgen receptor at 10 uM after 1440 mins by scintillation counting method relative to control
[5] = organism: Homo sapiens; assay: Displacement of [3H]nociceptin from human recombinant NOP receptor at 10 uM after 60 mins by scintillation counting analysis relative to control

C[C@H](O)[C@H]1NC(=O)[C@@H]2NC(=O)[C@@H](NC(=O)CN)CSSC[C@H](NC(=O)[C@H](CCCNC(=N)N)NC(=O)[C@@H]3CCCN3C(=O)[C@H](CC(O)O)NC1=O)C(=O)N[C@@H](CCCNC(=N)N)C(=O)N[C@@H](Cc1ccc(O)c(I)c1)C(=O)N[C@@H](CCC(N)=O)C(=O)N[C@H](C(=O)N[C@H](CC(=O)N[C@@H](CCCNC(=N)N)C(=O)O)Cc1ccc(O)cc1)CSCS2
inhibition [1]: 12% | Activity [2]: 11.6% | Activity [3]: 1.5% | Activity [4]: 0% | Activity [5]: -2.6%
